Tested on: human lung cancer cell line A549
Assay: Chicken embryo CAM assay, PLTX from different corals
Conditions: Palytoxin at 1 nM; for Tumor weight: 100 μl onto the tumor E11, E13, E15, E17, weighed E18; for Metastasis (ratio of QPCR Alu signal compared to group PLTX from Palythoa Heliodiscus): lower CAM

| Substance | Tumor weight [mg] | Metastasis (ratio of QPCR Alu signal compared to group PLTX from Palythoa Heliodiscus) |
| --- | --- | --- |
| palytoxin [Palythoa Heliodiscus] | 16.63 | 1 |
| palytoxin [Palythoa aff. Clavata] | 17.49 | 3.27 |
| palytoxin [Palythoa sp. Pc001] | 18.16 | 1.53 |

Source: patent US20200147037A1, “NEW TREATMENT OF BRAIN CANCER” (priority 2017, published 2020)
